Measured values from publication PMC3426654 (Biochemistry, 2012).

Each substance was assayed on O=c1ccn([C@@H]2O[C@H](COP(=O)(O)OP(=O)(O)O[C@H]3O[C@@H]([C@H](O)CO)[C@H](O)[C@H]3O)[C@@H](O)[C@H]2O)c(=O)[nH]1 (assay: purified protein). Conditions: pH 7.5, 37 °C, 20 mM dithionite (reduced FAD).

Point of comparison: “TcUGM (UDP-galactopyranose mutase from Trypanosoma cruzi) (Trypanosoma cruzi strain CL Brener; G61A)”, Km 50 ± 10 µM. Against it:
- TcUGM (UDP-galactopyranose mutase from Trypanosoma cruzi) (Trypanosoma cruzi strain CL Brener; G61P) — 1.8-fold higher, 90 ± 20 µM
- TcUGM (UDP-galactopyranose mutase from Trypanosoma cruzi) (Trypanosoma cruzi strain CL Brener; H62A) — 2.1-fold lower, 24 ± 4 µM
